Library screen at single concentrations

The values are deposited in ChEMBL (CHEMBL3988442, “University of Dundee, Small-Polar-MMV Screening Library” (2021)).

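Phenotypic screen: M. tuberculosis growth, cholesterol and DPPC medium, 4 days; the read-out is not stated. Concentration: 500 µM. Direction is inferred from retests: higher values go with more growth inhibition. Size under these conditions: about 18,000 compounds, about 900 of them at 50% or above in at least one test.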

The filed quantity is “Percent Effect” (%). The controls that fix the scale are not given in the record; negative values are as filed. Many other results are left out here, so strong results are more common than in the screen.

structure	effect
N#Cc1c(F)cccc1NCCN	17.63
COC(=O)CC1CCCCN1CC(N)=O (stereo unspecified)	6.19
Cc1ccc2c(c1)nc(CN)n2C	106.3
NCCNC(=O)c1ccncc1	28.52
CC(C)CNc1cccc(-n2cnnn2)c1	63.17
COCCN(C)CCNC(=O)c1ccc(C)c(OC)c1	25.99
CS(=O)(=O)N1CCCC1c1cccc(F)c1 (stereo unspecified)	-0.18
CC1Oc2c(cccc2C(=O)N2CCC2(C)C)NC1=O (stereo unspecified)	-5.882
CCc1noc(Cn2cnc3ccccc3c2=O)n1	30.14
NCc1cc(Oc2ccc(F)c(F)c2)ccn1	-5.996
Cc1nonc1CC(=O)N(C)CCN1CCCCC1=O	-14.08
COCCC(=O)NC(c1ccc(F)cc1)C(F)(F)F (stereo unspecified)	20.09
NC(=O)CCNC(=O)CCOc1ccccc1	-13.61
Cc1ccc(Cl)cc1NC(=O)CN1CCN(C)CC1	35.33
Cc1nn(C)c(C)c1NC(=O)NCC(O)c1ccco1 (stereo unspecified)	3.672
COc1ccccc1NCC(=O)NCc1cnn(C)c1	0.5117
CCN1CCN(Cc2nc(-c3ccccc3)no2)CC1	25.54
COCc1nn(Cc2cccc(C#N)c2)c(=O)o1	30.81
CCn1cnnc1CNC(=O)CC1C=CCC1 (stereo unspecified)	-4.693
CCC(CC)C(CN)N1CCCC1 (stereo unspecified)	38.88
NC(CC(=O)N1CCOCC1)c1ccccc1 (stereo unspecified)	-3.675
N[C@H]1CN(C(=O)c2c(F)cccc2F)C[C@@H]1C1CC1	17.37
CNC(=O)c1ccc(NC(=O)N(C)CCOC)cc1	14.59
CCN(C(=O)CCc1cccnc1)[C@H]1COC[C@@H]1O	-9.878
NS(=O)(=O)c1cnc2ccsc2c1	4.804
CC(C)CNC(=O)CCN1C(=O)c2cccnc2C1=O	-1.205
CSc1ccccc1NC(=O)CCn1cnc(C#N)n1	61.22
C=C(C)COc1ccc(C(=O)NCc2ncc[nH]2)cc1	24.05
CCOC(=O)C1(N)CCN(C)CC1	-20.71
O=C1CCNC(C2CC2)C1 (stereo unspecified)	-19.42
CN(C)C(=O)NCCNc1nc(-c2ccccc2)ns1	-12.06
COc1ccc(-c2noc(C(C)n3ccnc3)n2)cn1 (stereo unspecified)	82.82
c1cc(C2CCCN2)n[nH]1 (stereo unspecified)	-9.707
Cc1nn(C)cc1S(=O)(=O)Nc1ccccn1	10.27
O=C(CN1CCn2ccnc2C1)Nc1ccc(Br)cn1	-2.006
CC(C)CC1CCN(C(=O)CCn2cnnn2)C1 (stereo unspecified)	76.27
COCCC(=O)c1ccc(F)cc1	3.332
Cc1ccc(NC(=O)N(C)C[C@H](O)CO)cc1Cl	9.63
NCc1ccc2sccc2c1	21.72
CS(=O)(=O)N1CCC(=Cc2ccccc2)CC1	-8.422
Cn1cncc1CN1CC[C@@]2(O)CCCC[C@H]2C1	-9.878
COCCOc1ccc(C(=O)NCc2ccco2)cc1	64.14
COc1ccc(CC(=O)N(C)C)c(OC)c1OC	-9.263
CCc1ccc(C(=O)CSc2nnc(N)[nH]2)cc1	69.94
COc1cc(C)c(C(C)N)cc1OC (stereo unspecified)	5.515
O=C(NC1CCCC1)c1cnccn1	0.4239
O=C1N[C@H]2CCC[C@@H]1CN(Cc1ccsc1)C2	-4.472
OC1COC2(CCN(Cc3cc(F)cc(F)c3)CC2)C1 (stereo unspecified)	-0.2681
CC(C)Cc1noc(-c2ccc(N(C)CCO)nc2)n1	62.32
COCCN1CCN(CCc2ccncc2)CC1	-4.155
Cc1cccc(N2CCN(CCCN)CC2)c1	98.98
CCc1nc(CNc2ncccc2S(N)(=O)=O)cs1	23.47
COc1cc(CCN)cc(OC)c1O	10.85
OCC(O)CSc1ncn(-c2ccccc2)n1 (stereo unspecified)	-4.989
COc1cc(CNC(=O)C(C)OCC(C)C)ccn1 (stereo unspecified)	50.65
Nc1ccn(-c2ccc(C(F)(F)F)cn2)n1	-1.129
COc1ccnc(NC(=O)NCc2cccs2)c1	60.95
Cc1cc(C(=O)NCCNC(=O)c2ccoc2)no1	8.98
Nc1ccnn1Cc1ccccn1	-24.36
CC(Oc1cccc(Br)c1)C(=O)NN1CCOCC1 (stereo unspecified)	5.949

Once more, the final 4:

- COc1ccnc(NC(=O)NCc2cccs2)c1 | 60.95%
- Cc1cc(C(=O)NCCNC(=O)c2ccoc2)no1 | 8.98%
- Nc1ccnn1Cc1ccccn1 | -24.36%
- CC(Oc1cccc(Br)c1)C(=O)NN1CCOCC1 (stereo unspecified) | 5.949%